Experimental data from patent US20110207784A1, “OXADIAZOLE-2-OXIDES AS ANTISCHISTOSOMAL AGENTS” (THE UNITED STATES OF AMERICA, AS REPRESENTED BY THE …, priority 2008, published 2011).

The chains behind the UniProt entries cited, without tags or fusion partners. Residues count along the entry.
UniProt Q962Y6, 1-598: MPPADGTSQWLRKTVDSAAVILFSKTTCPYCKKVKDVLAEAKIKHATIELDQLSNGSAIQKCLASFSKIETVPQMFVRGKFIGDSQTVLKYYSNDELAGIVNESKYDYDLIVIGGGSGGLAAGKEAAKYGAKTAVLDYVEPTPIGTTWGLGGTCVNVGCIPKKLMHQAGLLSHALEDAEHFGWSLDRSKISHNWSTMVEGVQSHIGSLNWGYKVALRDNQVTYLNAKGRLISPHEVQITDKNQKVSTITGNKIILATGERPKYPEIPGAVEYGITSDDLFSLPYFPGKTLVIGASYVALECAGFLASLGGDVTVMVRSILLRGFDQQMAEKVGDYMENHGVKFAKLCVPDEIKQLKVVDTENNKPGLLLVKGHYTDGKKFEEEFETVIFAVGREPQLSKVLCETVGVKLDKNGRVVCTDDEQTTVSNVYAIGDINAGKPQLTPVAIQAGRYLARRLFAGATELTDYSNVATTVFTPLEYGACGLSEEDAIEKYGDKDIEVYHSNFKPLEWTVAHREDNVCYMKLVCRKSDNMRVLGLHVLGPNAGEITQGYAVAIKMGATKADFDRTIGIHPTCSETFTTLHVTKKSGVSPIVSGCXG

Legend:
[1] = system: freshly perfused S. mansoni worms; experiment: ex vivo parasite killing assay; type: cell-based; settings: compound at 10 μM, after 48 hours
[2] = target: Recombinant thioredoxin glutathione reductase (TGR) (Schistosoma mansoni, UniProt Q962Y6); experiment: TGR enzyme inhibition assay (DTNB reduction, 1,536-well); type: biochemical, S. mansoni; settings: for TGR Max. Resp.: maximum response of TGR activity at full efficacy (curve asymptote), −100 = complete inhibition; for IC50: read-out: TGR IC50, 15 min preincubation with NADPH/TGR, DTNB substrate, absorbance 405 nm

In the case of `N#Cc1c(-c2ccc(-c3no[n+]([O-])c3C#N)cc2)no[n+]1[O-]`, the “worms judged to be dead” value [1] is reported as 100%, the “TGR Max. Resp.” value [2] is reported as -98 µM and the IC50 [2] is reported as 1000 nM.

For `N#Cc1c(-c2ccc(-c3no[n+]([O-])c3C#N)s2)no[n+]1[O-]`, the “worms judged to be dead” value [1] was 100%, the “TGR Max. Resp.” value [2] was -102 µM and the IC50 [2] was 400 nM.
